Values quoted from earlier work in patent publication US8022090B2, “Vitamin C composition stabilized with cationic material, anionic material and caffeic acid derivative” (The Faceshop Korea Co., Ltd, priority 2007, dated 2011).

Test system: production of aflatoxin
Conditions: background statement; cited from earlier work

## O=C(O)/C=C/c1ccc(O)c(O)c1 [caffeic acid]
  decrease of the production of aflatoxin: more than 95%
